Source: patent publication US20210380640A1

Target: SARS-CoV-2 spike protein (SARS-CoV-2) (UniProt P0DTC2)

## MIT control
  EC50: 6.8 nM
